For orientation: IC50 means the point on the concentration scale where inhibition reaches its midpoint. High values mean weaker potency, low ones greater potency.

The text below walks through data of patent US20220356230A1 (published 2022).

For assay [1], the target named is T1, SARS-CoV-2 RBD-hFc (receptor binding domain of the SARS-CoV-2 Spike protein, amino acids Arg319-Phe5 (SARS-CoV-2)). Put plainly: blocking ELISA, RBD-hFc to hACE2-His, run 3.
The target of assay [2] is T1, SARS-CoV-2 RBD-hFc (receptor binding …). Put plainly: blocking ELISA, RBD-hFc to hACE2-His, run 2. Background: An ELISA detects its analyte on a solid surface through an enzyme-linked reagent.

B1: mAb10998 (antibody, V domains shown)
VH: EVQLVESGGGLVHPGGSLRLSCAASGLTVSSNYMSWVRQAPGKGLEWVSVIYSGGSTYYADSVKGRFTISRHNSKNTLFLQMNSLRAEDTAVYYCARDRPITGTTLDVWGQGTTVTVSS
VL: DIQMTQSPSSLFASVGDRVTITCRASQSISSYLNWYQQKPGKAPKLLIYAASSLQSGVPSRFSGSGSGTDFTLTISSLQPEDFAFYYCQQTYSTPPITFGQGTRLEIKR
The molecule B1 yielded an IC50 in assay [1] of 4.3 nM. This counts as single-digit nanomolar.

B2: mAb11006 (antibody, V domains shown)
VH: EVQLVESGGGLVQPGGSLRLSCAASGFIVSRNYMSWVRQAPGKGLEWVSVIYSGGSTFYADSVKGRFTISRHNSKNTLYLQMNSLKAEDTAVYYCARELRGYFDYWGQGTLVTVSS
VL: DIQLTQSPSFLSASVGDRVTITCWASQGISSYLAWYQQKPGKAPKLLIYAASTLQSGVPSRFSGSGSGTEFTLTISSLQPEDFATYYCQLLNSYPYTFGQGTKLEIKR
In assay [1], B2 had an IC50 of 0.22 nM.

B3: mAb10966 (antibody, V domains shown)
VH: EVQLVESGGGLVQPGGSLRLSCAASGLTVSSNYMSWVRQAPGKGLEWVSVIYSGGSTFYADSVKGRFTISRDNSKNTLYLQMNSLRPEDTAVYYCAREGRIAATGYGMDVWGQGTTVTVSS
VL: DIQMTQSPSSLSASVGDRVTITCQASQDISNYLNWYQQKPGKAPKLLIYDASNLGTGVPSRFSGSRSGTDFTFTISSLQPEDIATYYCHQYDNLPQTFGPGTKVDIKR
Regarding B3, the IC50 in assay [2] amounted to 0.16 nM. That is a sub-nanomolar value.
